A mixed list of measured activities; the numbers were collected in NIAID ChemDB.

All rows: whole-cell or culture tests; organism: HIV-1; cell line: MM + M/M; measure: EC50

ECn is the concentration giving n% inhibition of infection, replication or growth. Neighbouring rows are from separate reports. An empty or dashed field is not shown.

CCCc1cc(=O)oc2c3c(c4c(c12)OC(C)(C)C=C4)O[C@@H](C)[C@H](C)[C@@H]3O ; strain or isolate: BaL ; method: p24 ; result: 0.01 µM
Cc1cn([C@H]2C=C[C@@H](CO)O2)c(=O)[nH]c1=O ; result: 0.25 µM
COC(=O)[C@H](C)NP(=O)(OC[C@@H]1CC[C@H](n2cnc3c(N)ncnc32)O1)Oc1ccccc1 ; strain or isolate: BaL ; method: antigen ; result: 0.004 µM
Nc1nc(N)c2ncn(CCOCP(=O)(O)O)c2n1 ; result: 0.07 µM
CCCc1cc(=O)oc2c3c(c4c(c12)OC(C)(C)C=C4)O[C@H](C)[C@@H](C)[C@@H]3O ; strain or isolate: ADA ; method: p24 ; result: 0.07 µM
CCOC(=O)c1cn([C@@H]2O[C@H](CO[Si](C)(C)C(C)(C)C)C3(OS(=O)(=O)C=C3N)[C@H]2O[Si](C)(C)C(C)(C)C)nn1 ; strain or isolate: BaL ; method: p24 ; result: <3.3 µM
CC(C)=CCOc1cc(NC(=S)c2ccsc2C)ccc1Cl ; strain or isolate: BaL ; method: p24 ; result: 0.015 µg/mL
Nc1ncnc2c1ncn2[C@H]1C=C[C@@H](CO)O1 ; strain or isolate: BaL ; method: p24 ; result: 5 µM
COC(=O)[C@H](C)NP(=O)(OC[C@H]1O[C@@H](n2cc(C)c(=O)[nH]c2=O)C[C@@H]1N=[N+]=[N-])Oc1ccccc1 ; strain or isolate: BaL ; method: antigen ; result: 0.012 µM
C[C@H](Cn1cnc2c(N)nc(N)nc21)OCP(=O)(O)O ; result: 0.02 µM
O=c1c2ccccc2n2nnc3ccc(NCCCN4CCN(CCCNc5ccc6nnn7c8ccccc8c(=O)c5c67)CC4)c1c32 ; strain or isolate: ADA ; method: p24 ; result: 0.005 µM
COC(=O)[C@H](C)NP(=O)(OC[C@@H]1C=C[C@H](n2cnc3c(N)ncnc32)O1)Oc1ccccc1 ; strain or isolate: BaL ; method: p24 ; result: 0.01 µM
Cc1cn([C@H]2C[C@H](N=[N+]=[N-])[C@@H](CO)O2)c(=O)[nH]c1=O ; strain or isolate: BaL ; method: p24 ; result: 0.03 µM
Cc1ccnc2c1NC(=O)c1cccnc1N2C1CC1 ; strain or isolate: ADA ; method: cytopathic effect / XTT ; conditions: clinical isolate ; result: 0.2 µM
Cc1ccnc2c1NC(=O)c1cccnc1N2C1CC1 ; strain or isolate: BaL ; method: p24 ; result: 0.4 µM
CC(C)Nc1cccnc1N1CCN(C(=O)c2cc3cc(NS(C)(=O)=O)ccc3[nH]2)CC1 ; strain or isolate: JR-FL ; method: p24 ; result: 0.02 µM
CC(=O)OC[C@H]1O[C@@H](SCCOP(=O)(OCS[C@@H]2O[C@H](COC(C)=O)[C@@H](OC(C)=O)[C@H](OC(C)=O)[C@H]2OC(C)=O)OC[C@H]2O[C@@H](n3cc(C)c(=O)[nH]c3=O)C[C@@H]2N=[N+]=[N-])[C@H](OC(C)=O)[C@@H](OC(C)=O)[C@@H]1OC(C)=O ; strain or isolate: LAI ; method: RT activity ; result: 0.2 µM
Nc1ccn([C@H]2CC[C@@H](CO)O2)c(=O)n1 ; result: 0.003 µM
Nc1nc(F)c2ncn([C@H]3CC[C@@H](CO)O3)c2n1 ; strain or isolate: BaL ; method: cytopathic effect / trypan blue ; result: <2 µM
Cc1occc1C(=S)Nc1ccc(Cl)c(/C=N/OC(C)(C)C)c1 ; strain or isolate: BaL ; method: p24 ; result: 0.85 µg/mL
Cc1cn([C@H]2C[C@H](N=[N+]=[N-])[C@@H](CO)O2)c(=O)[nH]c1=O ; strain or isolate: BAL R5 ; method: p24 ; result: 0.003 µM
CCOCn1c(Cc2ccccc2)c(C(C)C)c(=O)[nH]c1=O ; strain or isolate: BaL ; method: p24 ; result: 0.02 µg/mL
CC(=O)OC[C@H]1O[C@@H](SCCOP(=O)(OCCS[C@@H]2O[C@H](CO)[C@@H](O)[C@H](O)[C@H]2O)OC[C@H]2O[C@@H](n3cc(C)c(=O)[nH]c3=O)C[C@@H]2N=[N+]=[N-])[C@H](OC(C)=O)[C@@H](OC(C)=O)[C@@H]1OC(C)=O ; strain or isolate: LAI ; method: RT activity ; result: 0.04 µM
COC(=O)[C@H](C)NP(=O)(OC[C@@H]1CC[C@H](n2ccc(N)nc2=O)O1)Oc1ccccc1 ; strain or isolate: BaL ; method: antigen ; result: 0.09 µM
Cc1cn([C@H]2C[C@H](N=[N+]=[N-])[C@@H](COP(=O)(OCCS[C@@H]3O[C@H](CO)[C@@H](O)[C@H](O)[C@H]3O)OCCS[C@@H]3O[C@H](CO)[C@@H](O)[C@H](O)[C@H]3O)O2)c(=O)[nH]c1=O ; strain or isolate: LAI ; method: RT activity ; result: 0.4 µM
CCc1nc2ccccn2c1C(=O)c1cccs1 ; strain or isolate: BaL ; method: RT activity ; result: 0.5 µM

For reference, 3 entries again:

smiles	strain or isolate	method	conditions	result
Cc1cn([C@H]2C=C[C@@H](CO)O2)c(=O)[nH]c1=O				0.25 µM
CC(=O)OC[C@H]1O[C@@H](SCCOP(=O)(OCS[C@@H]2O[C@H](COC(C)=O)[C@@H](OC(C)=O)[C@H](OC(C)=O)[C@H]2OC(C)=O)OC[C@H]2O[C@@H](n3cc(C)c(=O)[nH]c3=O)C[C@@H]2N=[N+]=[N-])[C@H](OC(C)=O)[C@@H](OC(C)=O)[C@@H]1OC(C)=O	LAI	RT activity		0.2 µM
COC(=O)[C@H](C)NP(=O)(OC[C@@H]1CC[C@H](n2ccc(N)nc2=O)O1)Oc1ccccc1	BaL	antigen		0.09 µM